Pooled drug test results. Numbers come from NIAID ChemDB, via PubChem.

Shared fields: growth or infection tests

Two numbers with a dash give a range or band. Fold resistance has wild type as its base. Neighbouring rows are from separate reports. ECn: concentration that inhibits the pathogen or its effect by n%. MIC50, MIC90 and the like: level of inhibition, or share of isolates inhibited. Zones are inhibition diameters on agar. An empty or dashed field is not shown.

structure,organism,strain,changes,cell line,method,conditions,endpoint,dose,value
O=C(NC(=O)C1CCCCC1)c1ccccc1O,Toxoplasma gondii,-,-,Human foreskin fibroblasts,-,-,MIC50,-,>0.25 µM
Cn1cc(C(=O)NCc2ccc(Cl)cc2)c(=O)c2cc(CN3CCOCC3)ccc21,Herpes simplex virus 2,L6250234 (WILD TYPE),-,HFF,plaque count,-,EC50,-,6.2 µM
Cc1cc(S(N)(=O)=O)ccc1NC(=O)COc1ccc(Cl)cc1C(=O)c1cc(F)cc(C(F)(F)F)c1,HIV-1,HXB2,RT-V108I,HeLa + HELA CD4+,β-galactosidase,-,fold resistance,-,~1
CCCc1cc(=O)oc2cc(OS(=O)(=O)c3ccc(C)cc3)cc(O)c12,Measles virus,X-1108,-,CV-1,cytopathic effect,-,EC50,-,0.3 µg/mL
Oc1ccccc1C=Nc1ccccc1O,Cryptococcus gattii,29/10893,-,-,-,-,MIC99,-,8 µg/mL
Cc1cc2cn[nH]c2cc1NC(=O)COc1ccc(Cl)cc1C(=O)c1cccc(C#N)c1,HIV-1,HXB2,RT-K103N V108I,HeLa + HELA CD4+,β-galactosidase,-,fold resistance,-,~1
Cc1ccc(C(C)C)c(O)c1,Aspergillus fumigatus,ATCC 46645,-,-,-,-,MLC,-,0.64 µg/mL
Oc1ccccc1N=Cc1ccc(F)cc1,Cryptococcus gattii,196L/03,-,-,-,-,MIC99,-,4 µg/mL
Cc1cc(C)cc(C(=O)c2cc(Cl)ccc2OCC(=O)Nc2ccc(S(N)(=O)=O)cc2C)c1,HIV-1,HXB2,RT-K103N V108I,HeLa + HELA CD4+,β-galactosidase,-,fold resistance,-,~1
O=C(NCc1ccc(Cl)cc1)c1cn2c3c(cc(CN4CCOCC4)cc3c1=O)OC(c1cccnc1)C2,Herpes simplex virus 2,L6191456 ACV resistant,-,HFF,plaque count,-,EC50,-,>18 µM
CCOC(=O)c1c(C)nc(NCCCCNc2ccnc3cc(Cl)ccc23)nc1-c1ccc(F)cc1,Cryptococcus gattii,L 27/01,-,-,-,-,MIC99,-,32 µg/mL
CCCc1cc(=O)oc2cc(OS(=O)(=O)c3ccc(C)cc3)cc(OS(=O)(=O)c3ccc(C)cc3)c12,Measles virus,BIL,-,CV-1,cytopathic effect,-,EC50,-,0.4 µg/mL
Oc1ccccc1N=Cc1ccccc1,Cryptococcus gattii,L24/01,-,-,-,-,MIC99,-,5.7 µg/mL
Cc1ccc(Cn2cnc3c(Nc4cccc(F)c4)nc(C(F)(F)F)nc32)cc1,Rhinovirus,Serotype 4,-,M-HELA,plaque count,-,EC50,-,180 µM
C=CCc1ccc(OC)c(OC)c1,Candida parapsilosis,2918,-,-,turbidity,-,MIC90,-,350 µg/mL
C[C@H](NC(=O)c1c2n(c(=O)n1-c1ccc(OCC(F)(F)F)cc1)CCN(C(=O)c1ccc(Br)c(Cl)c1)C2)c1cccc2nccnc12,Hepatitis B virus,-,-,HepG2.117,PCR,-,EC50,-,0.1–0.5 µM
Cc1cc(S(N)(=O)=O)ccc1NC(=O)COc1ccc(Cl)cc1C(=O)c1cccc(C#N)c1,HIV-1,HXB2,RT-P236L,HeLa + HELA CD4+,β-galactosidase,-,fold resistance,-,~10
Cc1ccc2c(c1)C(C1SCC(=O)N1NC(=O)N1c3ccccc3C=Cc3ccccc31)C(c1ccccc1)=N2,Aspergillus oryzae,MTCC-3567,-,-,agar diffusion,-,zone,750 µg/mL,5 mm
O=C(NCc1ccc(Cl)cc1)c1c[nH]c2ccc(CCCO)cc2c1=O,Varicella zoster virus,Webster,-,-,plaque count,-,EC50,-,0.17 µM
Cc1cc2[nH]cnc2cc1NC(=O)COc1ccc(Cl)cc1C(=O)c1cc(F)cc(C(F)(F)F)c1,HIV-1,HXB2,RT-K103N,HeLa + HELA CD4+,β-galactosidase,-,fold resistance,-,~1
CC(C)Nc1nc2cc(Cl)c(Cl)cc2n1[C@H]1O[C@@H](CO)[C@H](O)[C@@H]1O,Human cytomegalovirus,C8912,-,MRC-5,hybridisation,-,EC50,-,0.04 µM
CCCc1cc(=O)oc2c3c(c4c(c12)OC(C)(C)[C@H](O)[C@@H]4O)O[C@H](C)[C@@H](C)[C@@H]3O,Measles virus,X-1108,-,CV-1,cytopathic effect,-,EC50,-,10 µg/mL
CC(C)CS[C@@H]1C[C@H](n2cnc3c(N)ncnc32)[C@@H](O)[C@H]1O,Parainfluenza virus,TYPE 3,-,HeLa,cytopathic effect,-,EC50,-,>80 µg/mL
N#Cc1ccc(Cn2cnc3c(Nc4cccc(F)c4)nc(C(F)(F)F)nc32)cc1,Rhinovirus,Serotype 4,-,M-HELA,plaque count,-,EC50,-,>100 µM
Cc1cc(S(N)(=O)=O)ccc1NC(=O)COc1ccc(Cl)cc1C(=O)c1cc(C#N)cc(C#N)c1,HIV-1,HXB2,RT-Y181C,HeLa + HELA CD4+,β-galactosidase,-,fold resistance,-,~1
CCC(CC)[C@H](NC(C)=O)[C@@H]1C[C@@H](C(=O)O)C[C@H]1N=C(N)N,Influenza A virus,H1N1 A/NWS/33,-,MDCK,-,-,EC50,-,19 µM
CC[C@H]1OC(=O)[C@H](C)[C@@H](OC2C[C@@](C)(OC)[C@@H](O)[C@H](C)O2)[C@H](C)[C@@H](OC2O[C@H](C)C[C@H](N(C)C)[C@H]2O)[C@](C)(O)C[C@@H](C)CN(C)[C@H](C)[C@@H](O)[C@]1(C)O,Plasmodium falciparum,W2 Mef AziR,-,RBC,fluorescence,120 h,EC50,-,0.9 µM
O=C(CC(=O)Nc1cccc(C(F)(F)F)c1)Nc1cccc(C(F)(F)F)c1,Escherichia coli,ES142,-,-,-,-,MIC,-,>300 µM
CO[C@H]1/C=C/O[C@@]2(C)Oc3c(C)c(O)c4c(O)c(c5c(c4c3C2=O)NC2(CCN(CC(C)C)CC2)N=5)=NC(=O)/C(C)=C\C=C\[C@H](C)[C@H](O)[C@@H](C)[C@@H](O)[C@@H](C)[C@H](OC(C)=O)[C@@H]1C,Mycobacterium avium intracellulare,141,-,-,-,-,MIC,-,1 µg/mL
Nc1nc2c(ncn2COC(CO)CO)c(=O)[nH]1,Human cytomegalovirus,TOWNE,-,-,virus yield,-,EC95,-,3.1 µM
C[C@H](NC(=O)c1c2n(c(=O)n1-c1ccc(OC3CC3)cc1)CCN(C(=O)c1ccc(Br)c(Cl)c1)C2)c1ccc(OC(F)(F)F)cc1,Hepatitis B virus,-,-,HepG2.117,PCR,-,EC50,-,0.5–5 µM
NC(=O)NNC(=O)Nc1cc(C(F)(F)F)cc(C(F)(F)F)c1,Klebsiella pneumoniae,KL21,-,-,-,-,MIC,-,223 µM
C[C@@H](c1ncncc1F)[C@](O)(Cn1cncn1)c1ccc(F)cc1F,Cryptococcus gattii,CBS 11752,-,-,broth dilution,-,MIC,-,0.125 µg/mL
CCOC(=O)c1c(C)nc(NCCCNc2ccnc3cc(Cl)ccc23)nc1-c1ccccc1,Cryptococcus gattii,ATCC 32608,-,-,-,-,MIC99,-,16 µg/mL
Nc1ncnc2c1ncn2C=C1CC1CO,Human cytomegalovirus,VR3480 (ganciclovir-resistant),-,-,plaque count,-,EC50,-,4.3 µM
CC[C@H]1OC(=O)[C@H](C)[C@@H](OC2C[C@@](C)(OC)[C@@H](O)[C@H](C)O2)[C@H](C)[C@@H](OC2O[C@H](C)C[C@H](N(C)C)[C@H]2O)[C@](C)(OC2C[C@@H](O)[C@H](O)[C@H](C)O2)C[C@@H](C)C(=O)[C@H](C)[C@@H](O)[C@]1(C)O,Plasmodium falciparum,3D7,-,RBC,fluorescence,48 h,EC50,-,60.9 µM
O=C(NN=CC1C(c2ccccc2)=Nc2ccccc21)N1c2ccccc2C=Cc2ccccc21,Aspergillus oryzae,MTCC-3567,-,-,agar diffusion,-,zone,750 µg/mL,12 mm
Fc1cccc(Cn2cnc3c(Nc4cccc(F)c4)nc(C(F)(F)F)nc32)c1,Rhinovirus,Serotype 28,-,M-HELA,plaque count,-,EC50,-,4.7 µM
COc1ccccc1S(=O)(=O)NC(=O)c1ccc(NC(=O)CCCCCCC(=O)NO)cc1,Toxoplasma gondii,-,-,Human foreskin fibroblasts,-,-,MIC50,-,>0.25 µM
CCO/N=C/c1ccc(OCCC2CCN(c3ccc(Cl)nn3)CC2)cc1,Rhinovirus,Baylor 1 (ICAM-1 receptor group 45),-,KB,neutral red,-,EC50,-,0.258 µM
C[C@@H](c1nc(-c2ccc(C#N)cc2)cs1)[C@](O)(Cn1cncn1)c1cc(F)ccc1F,Cryptococcus gattii,VG IIc,-,-,broth dilution,-,MIC50,-,0.25 µg/mL
CC(C)Oc1ccc2cc(C(=O)NC(=O)c3ccccc3O)ccc2c1,Toxoplasma gondii,-,-,Human foreskin fibroblasts,-,-,MIC90,-,>0.25 µM
O=C(NN1C(=O)CSC1C1C(c2ccccc2)=Nc2ccc(Cl)cc21)N1c2ccccc2C=Cc2ccccc21,Aspergillus oryzae,MTCC-3567,-,-,agar diffusion,-,zone,500 µg/mL,12 mm
C[C@H](NC(=O)c1c2n(c(=O)n1-c1ccc(OC3CC3)cc1)CCN(C(=O)c1ccc(Br)c(Cl)c1)C2)c1ccc(OCC#N)cc1F,Hepatitis B virus,-,-,HepG2.117,PCR,-,EC50,-,0.1–0.5 µM
Nc1nc2c(ncn2COC2COP(=O)(O)OC2)c(=O)[nH]1,Guinea pig herpesvirus,Lymphotropic,-,GPE,plaque count,-,EC50,-,2 µg/mL
CCN(CC)c1ccc(C(=O)NS(=O)(=O)c2ccccc2OC)cc1,Toxoplasma gondii,-,-,Human foreskin fibroblasts,-,-,MIC90,-,>0.25 µM
CC(C)N=C(N)/N=C(\N)NOCCCOc1cc(Cl)c(Cl)cc1Cl,Mycobacterium avium complex,KT,-,-,-,-,MIC,-,32 µg/mL
O=C(N[C@@H](C(=O)N1CCC[C@H]1c1ncc(-c2ccc(-c3ccc(-c4cnc([C@@H]5CCCN5C(=O)[C@H](NC(=O)C5CC5)c5ccccc5)s4)cc3)cc2)s1)c1ccccc1)C1CC1,Hepatitis C virus,genotype 2a,P58L,Huh7.5,luciferase / reporter gene,-,EC50,-,0.053 µM
CCC(O)CN(NC(=O)Nc1cc(C(F)(F)F)cc(C(F)(F)F)c1)C(=O)Nc1ccc(C(F)(F)F)cc1,Klebsiella pneumoniae,KL21,-,-,-,-,MIC,-,>300 µM
CCCc1cc(=O)oc2cc(OC(=O)C(C)(C)C)c3c(c12)OC(C)(C)C=C3,Measles virus,Chicago-1,-,CV-1,virus yield,-,EC50,-,<0.3 µg/mL
O=C(NNC(=O)Nc1ccc(Cl)c(Cl)c1)Nc1ccc(Cl)c(Cl)c1,Klebsiella pneumoniae,KL21,-,-,-,-,MIC,-,1.2 µM
O=C(NCc1ccccc1-n1cc(F)cn1)c1c2n(c(=O)n1-c1ccc(OC3CC3)cc1)CCN(C(=O)c1ccc(Br)c(Cl)c1)C2,Hepatitis B virus,-,-,HepG2.117,PCR,-,EC50,-,<0.1 µM
CCCC(CCC)C(NC(C)=O)C1CC(C(=O)O)CC1N=C(N)N,Influenza A virus,H1N1 A/TEXAS/36/91,-,MDCK,-,-,EC50,-,0.11 µM
Fc1cccc(Nc2nc(C(F)(F)F)nc3c2ncn3Cc2ccc(C(F)(F)F)cc2)c1,Rhinovirus,Serotype 4,-,M-HELA,plaque count,-,EC50,-,40 µM
CCCC(CCC)C(NC(C)=O)C1C(N=C(N)N)CC(C(=O)O)C1O,Influenza A virus,Influenza A/Victoria/3/75 (H3N2),-,MDCK,-,-,EC50,-,0.07 µM
Nc1nc2c(ncn2COC(CO)CO)c(=O)[nH]1,Human cytomegalovirus,2916RAE (LEU397ARG),-,MRC-5,hybridisation,-,EC50,-,0.31 µM
CCC(CC)O[C@@H]1C=C(C(=O)O)C[C@H](N)[C@H]1NC(C)=O,Influenza B virus,Memphis/20/96,-,MDCK,plaque count,-,EC50,-,0.055 µg/mL
COC(=O)N[C@H](C(=O)N1CCC[C@H]1c1ncc(-c2ccc(-c3ccc(-c4cnc([C@@H]5CCCN5C(=O)[C@@H](NC(=O)OC)C(C)C)[nH]4)cc3)cc2)[nH]1)C(C)C,Hepatitis C virus,1a,Q30K,Lunet,luciferase,-,EC50,-,0.19 µM
CS(=O)(=O)Nc1ccc(NC(=O)COc2ccc(Cl)cc2C(=O)c2ccccc2)cc1,HIV-1,HXB2,RT-Y181C,HeLa + HELA CD4+,β-galactosidase,-,EC50,-,0.011–0.1 µM

A second listing of 6 rows from above:

{"structure": "CCCC(CCC)C(NC(C)=O)C1C(N=C(N)N)CC(C(=O)O)C1O", "organism": "Influenza A virus", "strain": "Influenza A/Victoria/3/75 (H3N2)", "cell line": "MDCK", "endpoint": "EC50", "value": "0.07 µM"}
{"structure": "O=C(NC(=O)C1CCCCC1)c1ccccc1O", "organism": "Toxoplasma gondii", "cell line": "Human foreskin fibroblasts", "endpoint": "MIC50", "value": ">0.25 µM"}
{"structure": "CCN(CC)c1ccc(C(=O)NS(=O)(=O)c2ccccc2OC)cc1", "organism": "Toxoplasma gondii", "cell line": "Human foreskin fibroblasts", "endpoint": "MIC90", "value": ">0.25 µM"}
{"structure": "Nc1nc2c(ncn2COC(CO)CO)c(=O)[nH]1", "organism": "Human cytomegalovirus", "strain": "2916RAE (LEU397ARG)", "cell line": "MRC-5", "method": "hybridisation", "endpoint": "EC50", "value": "0.31 µM"}
{"structure": "O=C(NCc1ccc(Cl)cc1)c1cn2c3c(cc(CN4CCOCC4)cc3c1=O)OC(c1cccnc1)C2", "organism": "Herpes simplex virus 2", "strain": "L6191456 ACV resistant", "cell line": "HFF", "method": "plaque count", "endpoint": "EC50", "value": ">18 µM"}
{"structure": "O=C(CC(=O)Nc1cccc(C(F)(F)F)c1)Nc1cccc(C(F)(F)F)c1", "organism": "Escherichia coli", "strain": "ES142", "endpoint": "MIC", "value": ">300 µM"}